Measured values from several laboratories, pooled; numbers as filed in NIAID ChemDB.

Common to all: tests in culture; agent: Candida albicans; endpoint: zone

Zones are inhibition diameters on agar. Blank or dashed fields: not listed here. Conditions beyond the fields shown may differ between rows.

structure	dose	method	strain	value
CN(C)c1ccc(C2c3ccc4ccccc4c3Oc3nc(-c4cc5ccccc5oc4=O)[nH]c(=O)c32)cc1	150 µg/mL	agar diffusion / agar	-	15 mm
Cc1ccc(-n2cc(-c3ccc([N+](=O)[O-])cc3)c(-c3ccnc4nncn34)n2)cc1	5 mg/mL	agar diffusion / agar	-	10 mm
CN1C(=O)/C(=c2/[nH][nH]c(=O)/c2=C\c2ccccc2)C(=O)c2ccccc21	1 mg/mL	agar diffusion	ATCC 10231	14 mm
Cc1ccc(-n2cc(-c3ccc([N+](=O)[O-])cc3)c(C(=O)/C=C/N(C)C)n2)cc1	5 mg/mL	agar diffusion / agar	-	7 mm
S=c1n(CN2CCN(Cc3ccccc3)CC2)nc(C23CC4CC(CC(C4)C2)C3)n1/N=C/c1c(Cl)cccc1Cl	200 µg/disc	agar diffusion	IFO 3007	<10 mm
COC(=O)N[C@H](C(=O)NN(CC[C@@]1(Cc2ccccc2)C(=O)N(C2c3ccccc3C[C@H]2O)C[C@H]1O)Cc1ccc(-c2ccccn2)cc1)C(C)(C)C	10 mg/mL	agar diffusion / agar	-	12.8 mm
COc1ccc(/C=c2\c(=O)[nH][nH]\c2=C2/C(=O)c3ccccc3N(C)C2=O)cc1OC	1 mg/mL	agar diffusion	ATCC 10231	13 mm
COc1ccc(C2=CC(c3cc(OC)c(OC)c(OC)c3)NC(=S)N2C)cc1OC	1 mg/mL	agar diffusion / agar	DSM 70014	16 mm
Nc1nc(COC(=O)c2cccc([N+](=O)[O-])c2Cl)cs1	25 µg/mL	-	-	<10 mm
COc1ccc(C2=NN(C(C)=O)C(c3cc(OC)c(OC)c(OC)c3)C2)cc1OC	1 mg/mL	agar diffusion / agar	DSM 70014	12 mm
Fc1cccc(F)c1/C=N/n1c(C23CC4CC(CC(C4)C2)C3)nn(CN2CCN(c3ccccc3)CC2)c1=S	200 µg/disc	agar diffusion	IFO 3007	<10 mm
CSC1=NC(c2ccccc2Cl)C(C#N)=C(N)N1	50 µg/mL	agar diffusion	MTCC 227	17 mm
CCOC(=O)N1CCN(CN2NC(C34CC5CC(CC(C5)C3)C4)N(CC)C2=S)CC1	200 µg/disc	agar diffusion / agar	IFO 0583	<10 mm
C[C@H]1[C@H](O)[C@@H](C)/C=C/C=C/C=C/C=C/C=C/C=C/C=C/[C@H](O[C@@H]2O[C@H](C)[C@@H](O)[C@H](N)[C@@H]2O)C[C@@H]2O[C@](O)(C[C@@H](O)C[C@@H](O)CC[C@H](O)[C@@H](O)C[C@@H](O)CC(=O)O[C@H]1C)C[C@H](O)[C@H]2C(=O)O	150 µg/mL	agar diffusion / agar	-	23.5 mm
C/C=C/N1C(=S)N(CN2CCN(C(=O)OCC)CC2)NC1C12CC3CC(CC(C3)C1)C2	200 µg/disc	agar diffusion / agar	IFO 0583	<10 mm
CC(C)C[C@@H]1NC(=O)CNC(=O)[C@@H]2CCCN2C(=O)[C@H](CC(N)=O)NC(=O)[C@H](C)NC(=O)[C@H](Cc2ccc(O)cc2)NC(=O)[C@H]2CCCC2C1=O	6 µg/mL	-	-	15 mm
Nc1nc(COC(=O)Cc2cccc(C(F)(F)F)c2)cs1	25 µg/mL	-	-	<10 mm
CCOC(=O)C1CCN(Cn2nc(C34CC5CC(CC(C5)C3)C4)n(/N=C/c3ccc(OC)cc3)c2=S)CC1	200 µg/disc	agar diffusion	IFO 3007	<10 mm
FC(F)(F)c1cc(CSc2nnc(C34CC5CC(CC(C5)C3)C4)n2-c2ccccc2)cc(C(F)(F)F)c1	200 µg/disc	agar diffusion	IFO 0583	13 mm
O=[N+]([O-])c1ccc(/C=N/n2c(C34CC5CC(CC(C5)C3)C4)n[nH]c2=S)c([N+](=O)[O-])c1	200 µg/disc	agar diffusion	IFO 3007	<10 mm
Nc1nc(COC(=O)c2ccccc2[N+](=O)[O-])cs1	25 µg/mL	-	-	<10 mm
COC(=O)N[C@H](C(=O)NN(CC[C@]1(Cc2ccccc2)C(=O)N(C2c3ccccc3C[C@H]2O)C[C@H]1O)Cc1ccc(Br)cc1)C(C)(C)C	10 mg/mL	agar diffusion / agar	-	12.8 mm
CC(=O)c1ccc(-c2nn(-c3ccc(C)cc3)cc2-c2ccc([N+](=O)[O-])cc2)nc1C	2.5 mg/mL	agar diffusion / agar	-	4 mm
O=c1[nH]c(-c2cc3ccccc3oc2=O)nc2c1C(c1ccc(O)cc1)c1ccc3ccccc3c1O2	150 µg/mL	agar diffusion / agar	-	15 mm
Cc1cc(O)c(C(C)C)cc1Cl	100 µg/mL	agar diffusion	MTCC	20 mm
Cn1c(=O)c(-c2[nH][nH]c(=O)c2C=Nc2ccc(Cl)cc2)c(O)c2ccccc21	1 mg/mL	agar diffusion	ATCC 10231	22 mm
CN(C)CCSc1nnc(C23CC4CC(CC(C4)C2)C3)n1C	200 µg/disc	agar diffusion	IFO 0583	<10 mm
COc1ccc(C2c3ccc4ccccc4c3Oc3nc(-c4cc5ccccc5oc4=O)[nH]c(=O)c32)cc1	150 µg/mL	agar diffusion / agar	-	16 mm
COc1cc(C2CC(c3ccc4c(c3)OCO4)=NN2c2ccccc2)cc(OC)c1OC	1 mg/mL	agar diffusion / agar	DSM 70014	14 mm
Fc1cccc(F)c1/C=N/n1c(C23CC4CC(CC(C4)C2)C3)n[nH]c1=S	200 µg/disc	agar diffusion	IFO 3007	<10 mm
CCOC(=O)c1ccc(-c2nn(-c3ccccc3)cc2-c2ccc([N+](=O)[O-])cc2)nc1C	2.5 mg/mL	agar diffusion / agar	-	9 mm
CS(=O)(=O)c1nc(N)c(C#N)c(-c2ccccc2[N+](=O)[O-])n1	25 µg/mL	agar diffusion	MTCC 227	18 mm
COc1cc(/C=C/C(=O)c2ccc3c(c2)OCO3)cc(OC)c1OC	1 mg/mL	agar diffusion / agar	DSM 70014	16 mm
Cn1c(=O)c(-c2[nH][nH]c(=O)c2C=Nc2cccnc2)c(O)c2ccccc21	1 mg/mL	agar diffusion	ATCC 10231	17 mm
Cn1c(C23CC4CC(CC(C4)C2)C3)nn(CCN2CCCC2)c1=S	200 µg/disc	agar diffusion	IFO 0583	<10 mm
COC(=O)N[C@H](C(=O)NN(CCC[C@@]1(Cc2ccccc2)C(=O)N(C2c3ccccc3C[C@H]2O)C[C@H]1O)Cc1ccc(-c2cccnc2)cc1)C(C)(C)C	10 mg/mL	agar diffusion / agar	-	12.8 mm
COc1cc(C2CC(c3ccc4c(c3)OCO4)=NN2c2ccc([N+](=O)[O-])cc2)cc(OC)c1OC	1 mg/mL	agar diffusion / agar	DSM 70014	15 mm
CS(=O)(=O)c1nc(N)c(C#N)c(/C=C\c2ccccc2)n1	100 µg/mL	agar diffusion	MTCC 227	19 mm
Fc1cccc(F)c1/C=N/n1c(C23CC4CC(CC(C4)C2)C3)nn(CN2CCN(c3cccc(C(F)(F)F)c3)CC2)c1=S	200 µg/disc	agar diffusion	IFO 3007	<10 mm
COC(=O)N[C@H](C(=O)NN(CC[C@@]1(Cc2ccccc2)C(=O)N(C2c3ccccc3C[C@H]2O[Si](C)(C)C(C)(C)C)C[C@@H]1O[Si](C)(C)C(C)(C)C)Cc1ccc(Br)cc1)C(C)(C)C	10 mg/mL	agar diffusion / agar	-	12.8 mm
Cn1c(=O)c(-c2[nH][nH]c(=O)c2/C=N/c2ccccn2)c(O)c2ccccc21	1 mg/mL	agar diffusion	ATCC 10231	23 mm
CCN1C(=S)N(CN2CCN(Cc3ccccc3)CC2)NC1C12CC3CC(CC(C3)C1)C2	200 µg/disc	agar diffusion / agar	IFO 0583	<10 mm
CSC1=NC(c2ccccc2O)C(C#N)=C(N)N1	50 µg/mL	agar diffusion	MTCC 227	19 mm
C/C=C/N1C(=S)N(CN2CCN(CC)CC2)NC1C12CC3CC(CC(C3)C1)C2	200 µg/disc	agar diffusion / agar	IFO 0583	<10 mm
N#Cc1cccc(C(=O)OCc2csc(N)n2)n1	25 µg/mL	-	-	<10 mm
COc1ccc(C2c3ccc4ccccc4c3Oc3nc(-c4cc5ccccc5oc4=O)[nH]c(=O)c32)cc1OC	100 µg/mL	agar diffusion / agar	-	14 mm
CS(=O)(=O)c1nc(N)c(C#N)c(-c2ccc(O)cc2)n1	100 µg/mL	agar diffusion	MTCC 227	19 mm
CC(=O)C1=NN(c2ccccc2)C2=Nc3nccc(-c4nn(-c5ccccc5)cc4-c4ccc([N+](=O)[O-])cc4)c3C(=O)C12	5 mg/mL	agar diffusion / agar	-	10 mm
O=[N+]([O-])c1ccc(CSc2nnc(C34CC5CC(CC(C5)C3)C4)n2-c2ccccc2)cc1	200 µg/disc	agar diffusion	IFO 0583	12 mm
COc1ccc(/C=N/n2c(C34CC5CC(CC(C5)C3)C4)n[nH]c2=S)cc1	200 µg/disc	agar diffusion	IFO 3007	<10 mm
Clc1ccccc1C(c1ccccc1)(c1ccccc1)n1ccnc1	200 µg/disc	agar diffusion / agar	-	21 mm

5 of the rows above, restated:

structure | dose | method | strain | value
CSC1=NC(c2ccccc2O)C(C#N)=C(N)N1 | 50 µg/mL | agar diffusion | MTCC 227 | 19 mm
CC(C)C[C@@H]1NC(=O)CNC(=O)[C@@H]2CCCN2C(=O)[C@H](CC(N)=O)NC(=O)[C@H](C)NC(=O)[C@H](Cc2ccc(O)cc2)NC(=O)[C@H]2CCCC2C1=O | 6 µg/mL | - | - | 15 mm
Cn1c(=O)c(-c2[nH][nH]c(=O)c2/C=N/c2ccccn2)c(O)c2ccccc21 | 1 mg/mL | agar diffusion | ATCC 10231 | 23 mm
FC(F)(F)c1cc(CSc2nnc(C34CC5CC(CC(C5)C3)C4)n2-c2ccccc2)cc(C(F)(F)F)c1 | 200 µg/disc | agar diffusion | IFO 0583 | 13 mm
COc1ccc(C2c3ccc4ccccc4c3Oc3nc(-c4cc5ccccc5oc4=O)[nH]c(=O)c32)cc1 | 150 µg/mL | agar diffusion / agar | - | 16 mm